Measured values reported in patent US10975126B1 (priority 2020, dated 2021).

System: MERS-CoV
Test: Plaque reduction assay
Assay type: cell-based, MERS-CoV (CoV/KOR/KNIH/002_05_2015) in Vero cells
Conditions: for Normalize (plaque number): Vero cells, four days after infection; for Percent of DMSO #: plaques relative to DMSO control

SMILES | Normalize (plaque number) (10 μM peptide) | inhibition of plaque formation (10 μM peptide, initial test) | Percent of DMSO # (10 μM peptide) | EC50 (plaque reduction, peptide at 50 μM to 3.125 μM)
CC[C@H](C)[C@H](NC(=O)[C@H](Cc1ccc(O)cc1)NC(=O)[C@H](Cc1ccc(O)cc1)NC(=O)[C@H](CCC(=O)O)NC(=O)[C@H](CC(N)=O)NC(=O)[C@H](CC(C)C)NC(=O)[C@H](C)NC(=O)[C@H](CCCCN)NC(=O)[C@@H](NC(=O)[C@@H](NC(=O)[C@H](CCC(N)=O)NC(=O)[C@H](CCC(N)=O)NC(=O)[C@H](CC(C)C)NC(=O)[C@H](CO)NC(=O)[C@H](CCC(=O)O)NC(=O)[C@H](CCSC)NC(=O)[C@H](CCC(=O)O)NC(=O)[C@H](Cc1ccc(O)cc1)NC(=O)[C@@H](NC(=O)[C@H](CC(C)C)NC(=O)[C@H](CC(=O)O)NC(=O)[C@H](CC(C)C)NC(=O)[C@H](CC(C)C)NC(=O)[C@@H](NC(=O)[C@H](Cc1c[nH]c2ccccc12)NC(=O)[C@H](CC(N)=O)NC(=O)[C@@H](NC(=O)[C@H](CCC(N)=O)NC(=O)[C@@H](NC(=O)[C@H](CC(C)C)NC(=O)[C@@H](N)CO)[C@@H](C)O)[C@@H](C)CC)[C@@H](C)O)[C@@H](C)O)C(C)C)C(C)C)C(=O)N[C@@H](CC(=O)O)C(=O)N[C@@H](CC(C)C)C(=O)N[C@@H](CCCCN)C(=O)N[C@@H](CCC(=O)O)C(=O)N[C@@H](CC(C)C)C(=O)O [Peptide 5] | 31 | 95% | 5.032% | –
CC[C@H](C)[C@H](NC(=O)[C@H](Cc1ccc(O)cc1)NC(=O)[C@H](CO)NC(=O)[C@H](CCC(=O)O)NC(=O)[C@H](CC(N)=O)NC(=O)[C@H](CC(C)C)NC(=O)[C@H](CCCCN)NC(=O)[C@H](CCCCN)NC(=O)[C@@H](NC(=O)[C@@H](NC(=O)[C@H](CCC(=O)O)NC(=O)[C@H](CCC(=O)O)NC(=O)[C@H](CC(C)C)NC(=O)[C@H](CO)NC(=O)[C@H](CCCNC(=N)N)NC(=O)[C@H](CCSC)NC(=O)[C@H](CCC(=O)O)NC(=O)[C@H](Cc1ccc(O)cc1)NC(=O)[C@H](CCC(=O)O)NC(=O)[C@H](CC(C)C)NC(=O)[C@H](CC(=O)O)NC(=O)[C@H](CC(C)C)NC(=O)[C@H](CC(C)C)NC(=O)[C@@H](NC(=O)[C@@H](NC(=O)[C@H](CC(N)=O)NC(=O)[C@@H](NC(=O)[C@H](CCC(N)=O)NC(=O)[C@@H](NC(=O)[C@H](CC(C)C)NC(=O)[C@@H](N)CO)[C@@H](C)O)[C@@H](C)CC)[C@@H](C)O)[C@@H](C)O)C(C)C)C(C)C)C(=O)N[C@@H](CC(=O)O)C(=O)N[C@@H](CCC(=O)O)C(=O)N[C@@H](CCCCN)C(=O)N[C@@H](CCC(=O)O)C(=O)N[C@@H](CC(C)C)C(=O)O | 192 | – | 31.17% | –
CC[C@H](C)[C@H](NC(=O)[C@H](Cc1ccc(O)cc1)NC(=O)[C@H](CO)NC(=O)[C@H](CCC(=O)O)NC(=O)[C@H](CC(N)=O)NC(=O)[C@H](CC(C)C)NC(=O)[C@H](C)NC(=O)[C@H](CCCCN)NC(=O)[C@@H](NC(=O)[C@@H](NC(=O)[C@H](CCC(N)=O)NC(=O)[C@H](CCC(N)=O)NC(=O)[C@H](CC(C)C)NC(=O)[C@H](CO)NC(=O)[C@H](CC(C)C)NC(=O)[C@H](CCSC)NC(=O)[C@H](CCC(=O)O)NC(=O)[C@H](Cc1ccc(O)cc1)NC(=O)[C@@H](NC(=O)[C@H](CC(C)C)NC(=O)[C@H](CC(=O)O)NC(=O)[C@H](CC(C)C)NC(=O)[C@H](CC(C)C)NC(=O)[C@@H](NC(=O)[C@@H](NC(=O)[C@H](CC(N)=O)NC(=O)[C@@H](NC(=O)[C@H](CCC(N)=O)NC(=O)[C@@H](NC(=O)[C@H](CC(C)C)NC(=O)[C@@H](N)CO)[C@@H](C)O)[C@@H](C)CC)[C@@H](C)O)[C@@H](C)O)[C@@H](C)O)C(C)C)C(C)C)C(=O)N[C@@H](CC(=O)O)C(=O)N[C@@H](CC(C)C)C(=O)N[C@@H](CCCCN)C(=O)N[C@@H](CCC(=O)O)C(=O)N[C@@H](CC(C)C)C(=O)O | 220 | – | 35.71% | –
CC[C@H](C)[C@H](NC(=O)[C@H](Cc1ccc(O)cc1)NC(=O)[C@H](Cc1ccc(O)cc1)NC(=O)[C@H](CCC(=O)O)NC(=O)[C@H](CC(N)=O)NC(=O)[C@H](CC(C)C)NC(=O)[C@H](C)NC(=O)[C@H](CCCCN)NC(=O)[C@H](CCSC)NC(=O)[C@@H](NC(=O)[C@H](CCC(N)=O)NC(=O)[C@H](CCC(N)=O)NC(=O)[C@H](CC(C)C)NC(=O)[C@H](CO)NC(=O)[C@H](CCC(=O)O)NC(=O)[C@H](CCSC)NC(=O)[C@H](CCC(=O)O)NC(=O)[C@H](Cc1ccc(O)cc1)NC(=O)[C@@H](NC(=O)[C@H](CC(C)C)NC(=O)[C@H](CC(=O)O)NC(=O)[C@H](CC(C)C)NC(=O)[C@H](CC(C)C)NC(=O)[C@@H](NC(=O)[C@H](Cc1c[nH]c2ccccc12)NC(=O)[C@H](CC(N)=O)NC(=O)[C@@H](NC(=O)[C@H](CCC(N)=O)NC(=O)[C@@H](NC(=O)[C@H](CC(C)C)NC(=O)[C@@H](N)CO)[C@@H](C)O)[C@@H](C)CC)[C@@H](C)O)[C@@H](C)O)C(C)C)C(=O)N[C@@H](CC(=O)O)C(=O)N[C@@H](CC(C)C)C(=O)N[C@@H](CCCCN)C(=O)N[C@@H](Cc1c[nH]cn1)C(=O)N[C@@H](CC(C)C)C(=O)O | 220 | – | 35.71% | –
CC[C@H](C)[C@H](NC(=O)[C@H](Cc1ccc(O)cc1)NC(=O)[C@H](CO)NC(=O)[C@H](CCC(=O)O)NC(=O)[C@H](CC(N)=O)NC(=O)[C@H](CC(C)C)NC(=O)[C@H](CCCCN)NC(=O)[C@H](CCCCN)NC(=O)[C@@H](NC(=O)[C@@H](NC(=O)[C@H](CCC(=O)O)NC(=O)[C@H](CCC(=O)O)NC(=O)[C@H](CC(C)C)NC(=O)[C@H](CO)NC(=O)[C@H](CCCNC(=N)N)NC(=O)[C@H](CCSC)NC(=O)[C@H](CCC(=O)O)NC(=O)[C@H](Cc1ccc(O)cc1)NC(=O)[C@H](CCC(=O)O)NC(=O)[C@H](CC(C)C)NC(=O)[C@H](CC(=O)O)NC(=O)[C@H](CC(C)C)NC(=O)[C@H](CC(C)C)NC(=O)[C@@H](NC(=O)[C@@H](NC(=O)[C@H](CC(N)=O)NC(=O)[C@@H](NC(=O)[C@H](CCC(N)=O)NC(=O)[C@@H](NC(=O)[C@H](CC(C)C)NC(=O)[C@@H](N)CO)[C@@H](C)O)[C@@H](C)CC)[C@@H](C)O)[C@@H](C)O)C(C)C)C(C)C)C(=O)N[C@@H](CC(=O)O)C(=O)N[C@@H](CC(C)C)C(=O)N[C@@H](CCCCN)C(=O)N[C@@H](CCC(=O)O)C(=O)N[C@@H](CC(C)C)C(=O)O | 184 | – | 29.87% | –
CC[C@H](C)[C@H](NC(=O)[C@H](Cc1ccc(O)cc1)NC(=O)[C@H](Cc1ccc(O)cc1)NC(=O)[C@H](CCC(=O)O)NC(=O)[C@H](CC(N)=O)NC(=O)[C@H](CC(C)C)NC(=O)[C@H](C)NC(=O)[C@H](CCCCN)NC(=O)[C@@H](NC(=O)[C@@H](NC(=O)[C@H](CCC(N)=O)NC(=O)[C@H](CCC(N)=O)NC(=O)[C@H](CC(C)C)NC(=O)[C@H](CO)NC(=O)[C@H](CCC(=O)O)NC(=O)[C@H](CCSC)NC(=O)[C@H](CCC(=O)O)NC(=O)[C@H](Cc1ccc(O)cc1)NC(=O)[C@@H](NC(=O)[C@H](CC(C)C)NC(=O)[C@H](CC(=O)O)NC(=O)[C@H](CC(C)C)NC(=O)[C@H](CC(C)C)NC(=O)[C@@H](NC(=O)[C@H](Cc1c[nH]c2ccccc12)NC(=O)[C@H](CC(N)=O)NC(=O)[C@@H](NC(=O)[C@H](CCC(N)=O)NC(=O)[C@@H](NC(=O)[C@H](CC(C)C)NC(=O)[C@@H](N)CO)[C@@H](C)O)[C@@H](C)CC)[C@@H](C)O)[C@@H](C)O)C(C)C)C(C)C)C(=O)N[C@@H](CC(=O)O)C(=O)N[C@@H](CC(C)C)C(=O)N[C@@H](CCCCN)C(=O)N[C@@H](Cc1c[nH]cn1)C(=O)N[C@@H](CC(C)C)C(=O)O | – | – | 1.299% | 1850 nM
